Measured values from several laboratories, pooled; numbers as filed in NIAID ChemDB.

All rows: host cell toxicity; endpoint: CC50

Blank or dashed fields: not listed here. CCn: concentration that lowers growth or viability of the cells by n%. Conditions beyond the fields shown may differ between rows. a–b is a range or a potency band.

compound	method	setting	cell line	result
COc1c(N2CCNC(C)C2)c(F)cc2c(=O)c(C(=O)O)cn(C3CC3)c12	MTT		Vero mammalian cells	>155.3 µM
CS(=O)(=O)C1(c2noc(C(=O)NC34CC(c5nc6ccc(Cl)cc6s5)(C3)C4)n2)CC1	absorbance		Primary human hepatocytes	16.8 µM
COC(=O)C1=C(CN2CC(F)(F)[C@H]3[C@@H]2CCN3CC[C@](C)(O)C(=O)O)NC(c2nccs2)=N[C@H]1c1ccc(F)c(F)c1C	WST / absorbance		HepG2.2.15	>25 µM
CC(C)c1ccc2occ(C=O)c(=O)c2c1	MTT		HTLV-I-bearing MT-4	10.6 µg/mL
CC(C)N(Cc1ccc(OCC(=O)O)cc1)C(=O)c1ccc(-c2ccc3c(c2)OCO3)cc1			RAJI	>20 µM
N#Cc1c(NC(=O)c2c(F)c(F)c(F)c(F)c2F)sc2c1CCOC2			THP-1 human monocytic cells	24 µM
CCOc1nc(N)nc2ccc(-c3ccc(C(=O)NCCN(C)C)cc3)nc12			Huh7	10–20 µM
OC[C@H]1O[C@@H](Oc2ccccc2)[C@H](O)[C@@H](O)[C@@H]1O			LLC-MK2	>1000 µM
Nc1nc(O[C@H]2CCOC2)c2nc(-c3ccc(C(=O)NCC(F)(F)F)cc3)ccc2n1			Huh7	>20 µM
CCOC(=O)/C=C/[C@H](CCC(N)=O)NC(=O)[C@H](Cc1ccc(C)cc1)NC(=O)[C@@H](NC(=O)C1SCCS1)C(C)(C)C			H1-HELA	>100 µM
Cc1cccc(NC(=S)Nc2ccc(NC(=O)c3ccco3)cc2)c1	MTS		HFF	≥10 µg/mL
C1=NC(CN(Cc2ccccc2)c2ccccc2)=NC1	absorbance	5 d	HepAD38	>30 µM
OC[C@H]1O[C@@H](Oc2ccccc2)[C@H](O)[C@@H](O)[C@H]1Cl			LLC-MK2	1000 µM
CCC(=O)Nc1ccc(-c2ccc3nc(N)nc(NCCOC)c3n2)cc1			Huh7	>20 µM
CCOC(=O)CCCCCOc1cccc(CN(C(=O)c2ccc(-c3cc4ccccc4n3S(=O)(=O)c3ccccc3)cc2)C(C)C)c1			BJ	>20 µM
CCCCCCCCCCCCCCCC(=O)Nc1ccn([C@H]2CC[C@@H](COP(=O)(O)O[C@H]3C[C@H](n4cc(C)c(=O)[nH]c4=O)O[C@@H]3CO)O2)c(=O)n1	XTT		CEM-X17	37.7 µM
CS(=O)(=O)CCNc1nc(N)nc2ccc(-c3cccc(NS(=O)(=O)C4CC4)c3)nc12			Huh7	>20 µM
CC(CCC(=O)N[C@@H](Cc1ccc(O)cc1)C(=O)O)C1CCC2C3CCC4C[C@H](O)CCC4(C)C3C[C@H](O)C12C	XTT		VK2/E6E7	119.5 µg/mL
Nc1nc2c(ncn2COC(CO)CO)c(=O)[nH]1			HELF	70 µM
O=C(O)c1cc2ccccc2oc1=O	MTT		HTLV-I-bearing MT-4	612.9 µg/mL
O=c1[nH]c(=O)n([C@H]2CS[C@@H](CO)O2)cc1I			H-1	>100 µM
CC(C)(C)NC(=O)C1c2ccccc2CCN1c1cc2c(cc1F)c(=O)c(C(=O)O)c1sc3ccccc3n12	MTT		Vero mammalian cells	115 µM
CCOC(=O)/C=C/[C@H](C[C@@H]1CCNC1=O)NC(=O)[C@H](Cc1ccc(F)cc1)NC(=O)[C@@H](NC(=O)c1cc(C)on1)C(C)(C)C			H1-HELA	>10 µM
O=C1N(CCCCCCOc2ccc(Br)cc2)CCN1c1ccncc1			RD	>25 µM
NC(=O)CCNC(=O)c1ccccc1SCc1ccccc1	XTT		Monocyte macrophages	>100 µM
C[C@H]1O[C@@H](Oc2ccccc2)[C@H](O)[C@@H](O)[C@@H]1O			LLC-MK2	1000 µM
COc1ccc2occ(C=O)c(=O)c2c1	MTT		HTLV-I-bearing MT-4	96.7 µg/mL
CCOC(=O)COc1ccc(CNC(C)C)cc1			BJ	>20 µM
Nc1nc2c(ncn2COC(CO)CO)c(=O)[nH]1			COS 1	232 µg/mL
Cc1ccc(COc2cccc(C(=N)N)c2)cc1			HUT4-3/SX22-1	<100 µM
O=c1ccn([C@@H]2C[C@@H](F)[C@H](CO)O2)c(=O)[nH]1			PBM	>100 µM
C[C@H]1[C@@H](OC(=O)CCC(=O)O)O[C@@H]2O[C@@]3(C)CC[C@H]4[C@H](C)CC[C@@H]1[C@@]24OO3			PM1	>0.6 µM
Fc1ccc(-c2csc(-n3cccc3)n2)cc1	MTT		Lung adenocarcinoma cells	263 µM
COc1nc(=O)n([C@H]2C[C@H](O)[C@@H](CO)O2)cc1/C=C/Cl			PRK	200 µg/mL
Nc1ccn([C@@H]2C[C@@H](F)[C@H](CO)O2)c(=O)n1			PBM	>100 µM
COc1ccccc1-c1cc(=O)c2c(O)cccc2o1	MTS / absorbance		CHO	25.5 µM
CONC(=O)c1ccc(-c2ccc3nc(N)nc(OC(C)C)c3n2)cc1			Huh7	>20 µM
COc1ccccc1-c1cc(=O)c2c(OCc3ccccc3)cccc2o1	MTS / absorbance		CHO	25.5 µM
N=C(N)c1cccc(OCc2ccc(Br)cc2)c1			HUT4-3/SX22-1	<100 µM
O=c1[nH]cnc2c1ncn2[C@@H]1C[C@@H](F)[C@H](CO)O1			PBM	>100 µM
CCOC(=O)C1=C(CN2CC(F)(F)[C@@H]3[C@H]2CON3C[C@@H](OC)C(C)(C)C(=O)O)NC(c2nccs2)=N[C@@H]1c1ccc(F)c(F)c1C	WST / absorbance		HepG2.2.15	30.6 µM
Cc1ccc(C)n1-c1ccc(C(=O)NN2C(=O)c3c(Br)c(Br)c(Br)c(Br)c3C2=O)cc1	MTT		Lung adenocarcinoma cells	251 µM
CCOC(=O)/C=C/[C@H](C[C@@H]1CCNC1=O)NC(=O)[C@H](Cc1ccccc1)NC(=O)[C@H](CC(C)C)NC(=O)COc1ccccc1			H1-HELA	>100 µM
CC(C)(N)C(=O)Nc1ccc(-c2ccc3nc(N)nc(O[C@@H]4CCOC4)c3n2)cc1			Huh7	10–20 µM
OCC1OC(O)CC1OP(O)(=S)OCC1OC(O)CC1OP(O)(=S)OCC1OC(O)CC1OP(O)(=S)OCC1OC(O)CC1OOP(O)(=S)OCC1OC(O)CC1OP(O)(=S)OCC1OC(O)CC1OP(O)(=S)OCC1OC(O)CC1OP(O)(=S)OCC1OC(O)CC1OOP(O)(=S)OCC1OC(O)CC1OP(O)(=S)OCC1OC(O)CC1OP(O)(=S)OCC1OC(O)CC1OP(O)(=S)OCC1OC(O)CC1OOP(O)(=S)OCC1OC(O)CC1O	MTT		Rhesus macaque PBMC	>250 µM
NNC(=O)c1ccncc1	MTT		Lung adenocarcinoma cells	>450 µM
NC(N)=Nc1cccc(OCc2ccc(Br)cc2)c1			HUT4-3/SX22-1	<100 µM
COc1cc(OC)c(NC(=S)Nc2ccc(NC(=O)c3ccco3)cc2)cc1Cl	MTS		HFF	≥10 µg/mL
O=C(NN1C(=O)c2c(F)c(F)c(F)c(F)c2C1=O)c1ccc(-n2cccc2)cc1	MTT		Lung adenocarcinoma cells	261 µM
COc1ccc(C)cc1-c1oc2ccccc2c(=O)c1O	MTS / absorbance		CHO	25.5 µM
CCOC(=O)C1=C(CN2CC(F)(F)[C@@H]3[C@H]2CON3C[C@H](OC)C(C)(C)C(=O)O)NC(c2nccs2)=N[C@@H]1c1ccc(F)c(F)c1C	WST / absorbance		HepG2.2.15	30.6 µM
O=C(Nc1ccc(NC(=S)Nc2ccc(F)c(Cl)c2)cc1)c1ccco1	MTS		HFF	≥10 µg/mL
CCOc1nc(N)nc2ccc(-c3cccc(NS(=O)(=O)C4CCS(=O)(=O)C4)c3)nc12			Huh7	>20 µM
COC(=O)[C@H](Cc1cccc2ccccc12)Nc1nc2ccc(NC(=O)OC(C)(C)C)c(C)c2c(=O)o1			H1-HELA	>100 µM
c1ccc(-c2csc(-n3cccc3)n2)cc1	MTT		Lung adenocarcinoma cells	231 µM
CCC(=O)Nc1ccc(NC(=S)Nc2cc(Cl)c(OC)cc2OC)cc1	MTS		HFF	≥10 µg/mL
O=c1[nH]c(=O)n([C@H]2C[C@H](O)[C@@H](CO)O2)cc1/C=C\Cl			PRK	>200 µg/mL
C=CC1=C(C)C2=NC1=CC1=NC(=CC3=C(C)C4=C(O)CC(=C5NC(=C2)[C@@H](C)[C@@H]5CCC(=O)O)C4=N3)C(CC)=C1C	WST		Huh7.5	7.2 µg/mL
CCOC(=O)CCCCCOc1cccc(CN(C(=O)c2ccc(-c3ccoc3)cc2)C(C)C)c1			RAJI	>20 µM
COc1cc(OC)c(NC(=S)Nc2ccc(NC(=O)c3ccco3)cc2C(F)(F)F)cc1Cl	MTS		HFF	≥10 µg/mL
CCOC(=O)/C=C/[C@H](C[C@@H]1CCNC1=O)NC(=O)[C@H](Cc1ccccc1)NC(=O)[C@@H](NC(=O)COc1ccccc1)C(C)C			H1-HELA	>100 µM
CCOC(=O)c1c(NC(=O)c2c(F)c(F)c(F)c(F)c2F)sc2c1CCOC2			THP-1 human monocytic cells	5.3 µM
Cn1cc(C(=O)NCc2ccc(Cl)cc2)c(=O)c2cc(CN3CCOCC3)ccc21			10T1/2	>100 µM
N=C(N)c1cccc(OCc2ccccc2)c1			HUT4-3/SX22-1	<100 µM
COc1ccc(Br)cc1-c1cc(=O)c2ccccc2o1	MTS / absorbance		CHO	25.5 µM
CC1=CC(C(=O)N[C@H](C(=O)C[C@@H](Cc2ccc(F)cc2)C(=O)N[C@H](/C=C2\CCOC2=O)CCC(N)=O)C(C)C)NO1			H1-HELA	>100 µM
COc1ccc(Br)cc1-c1oc2cccc(OC)c2c(=O)c1O	MTS / absorbance		CHO	25.5 µM
NC(N)=Nc1cccc(OCc2ccc(Cl)cc2)c1			HUT4-3/SX22-1	<100 µM
CCOC(=O)C1=C(CN2CC(F)(F)[C@@H]3[C@H]2CON3C[C@@H](O)[C@H](CC)C(=O)O)NC(c2nccs2)=N[C@H]1c1cccc(F)c1C	WST / absorbance		HepG2.2.15	100 µM
OC[C@H]1O[C@@H](Oc2ccc(Cl)cc2)[C@H](O)[C@@H](O)[C@@H]1O			LLC-MK2	650 µM
O=Cc1coc2ccc([N+](=O)[O-])cc2c1=O	MTT		HTLV-I-bearing MT-4	35.4 µg/mL
O=C(O)c1ccccn1	visual reading	7 d	HFS	>600 µM
CS(=O)(=O)CCNc1nc(N)nc2ccc(-c3cccc(NS(C)(=O)=O)c3)nc12			Huh7	>20 µM
N=C1Sc2ccccc2C2=NCCCN12	LDH		Primary T lymphocytes	>300 µM